Measured values from PubChem BioAssay AID504406 (Broad Institute, 2011).
Only a part is listed here, and it is no random draw. Active and inactive are the calls of the source. Rule as the data show it: active = inhibition above about 10% (passing the limit was not always enough); inconclusive = no clear call, values can overlap the other calls.

Protein sequences, listed by entry. Tags and fused reporters are not part of them.
UniProt P9WIQ1, whole entry: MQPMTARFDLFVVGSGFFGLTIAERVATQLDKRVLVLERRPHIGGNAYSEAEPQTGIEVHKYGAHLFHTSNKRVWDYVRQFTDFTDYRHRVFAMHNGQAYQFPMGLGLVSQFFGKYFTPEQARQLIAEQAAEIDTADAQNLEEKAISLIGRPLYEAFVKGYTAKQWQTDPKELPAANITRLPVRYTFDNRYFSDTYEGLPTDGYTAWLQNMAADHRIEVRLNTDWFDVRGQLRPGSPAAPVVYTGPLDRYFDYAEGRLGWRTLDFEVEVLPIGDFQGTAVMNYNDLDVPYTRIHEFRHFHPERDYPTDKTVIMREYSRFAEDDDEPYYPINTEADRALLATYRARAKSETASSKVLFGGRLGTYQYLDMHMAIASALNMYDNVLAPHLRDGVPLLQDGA

Each compound was assayed against UDP-galactopyranose mutase (Mycobacterium tuberculosis (strain ATCC 25618 / H37Rv)) (UniProt P9WIQ1) (assay: M. tuberculosis UGM enzyme inhibitors, primary screen, biochemical, fluorescence polarization, single point (AID 504406)). Settings: purified UGM, fluorescence polarization probe displacement; at 10 µM; active compounds read high.

| SMILES | inhibition |
| --- | --- |
| COc1ccccc1OP(C)(=O)Nc1ccc(Br)cc1 (centres undefined) | inactive: -1.11% |
| CCc1ccc(OP(C)(=O)O)cc1 | inactive: -1.3% |
| COc1ccccc1OP(C)(=O)Nc1ccc(C)cc1C (centres undefined) | inactive: 0.0885% |
| CP(=O)(Nc1ccccn1)Oc1ccccc1 (centres undefined) | inactive: 0.925% |
| Cc1c(NP(C)(=O)Oc2ccc(C(C)C)cc2)c(=O)n(-c2ccccc2)n1C (centres undefined) | inactive: -0.178% |
| O=[N+]([O-])c1cc([N+](=O)[O-])c(Nc2ccccn2)c([N+](=O)[O-])c1 | inactive: -0.114% |
| CCc1ccc(OP(C)(=O)Nc2cccnc2)cc1 (centres undefined) | inactive: -2.91% |
| CP(=O)(Oc1ccccc1)N1CCOC1=O (centres undefined) | inactive: -4.73% |
| O=C(OCCCN1CCCC1)C(O)(c1ccccc1)C1CCCCC1 (centres undefined) | inactive: -4.38% |
| COc1ccccc1OP(C)(=O)Nc1c(C)n(C)n(-c2ccccc2)c1=O (centres undefined) | inactive: -0.249% |
| CCN(CC)CC(O)COC(=O)C(O)(c1ccccc1)C1CCCCC1 (centres undefined) | inactive: 3.83% |
| CN(C)C(=O)c1c([N+](=O)[O-])cc([N+](=O)[O-])cc1[N+](=O)[O-] | inactive: 0.223% |
| CP(=O)(Nc1ccc(Cl)cc1)Oc1ccc(F)cc1 (centres undefined) | inactive: 0.793% |
| COc1ccccc1OP(C)(=O)Nc1ccccc1Br (centres undefined) | inactive: 0.664% |
| CC(C)(C)c1ccc(OP(C)(=O)O)cc1 | inactive: 2.06% |
| CP(=O)(OC12CC3CC(CC(C3)C1)C2)OC12CC3CC(CC(C3)C1)C2 | inactive: 4.88% |
| CCOC(=O)c1ccc(NP(C)(=O)Oc2ccc(Cl)cc2)cc1 (centres undefined) | inactive: 1.7% |
| Nc1ccc2c(ccc3cccnc32)n1.O=[N+]([O-])c1cc([N+](=O)[O-])c(O)c([N+](=O)[O-])c1 | inactive: 4.37% |
| COc1ccccc1OP(C)(=O)Nc1ccccc1 (centres undefined) | inactive: 1.12% |
| CP(=O)(Nc1ccccc1Br)Oc1ccccc1 (centres undefined) | inactive: 0.279% |

| SMILES | inhibition |
| --- | --- |
| CP(=S)(Nn1cnnc1)Oc1ccccc1 (centres undefined) | inactive: -0.216% |
| Cc1cc(C)cc(OP(C)(=O)Nc2ccc(SC(F)(F)F)cc2)c1 (centres undefined) | inactive: 1.81% |
| CP(=O)(NC(=O)Nc1ccccc1)Oc1ccccc1 (centres undefined) | inactive: -1.01% |
| CCc1ccc(OP(C)(=O)N2CCN(c3ccc([N+](=O)[O-])cc3)CC2)cc1 (centres undefined) | inactive: 0.379% |
| CP(=O)(Oc1ccccc1)OC(c1ccccc1)C(F)(F)F (centres undefined) | inactive: -2.1% |
| CP(=O)(Nc1ccc(SC(F)(F)F)cc1)Oc1ccc(Cl)cc1 (centres undefined) | inactive: -3.11% |
| Cc1cccc(C)c1OP(C)(=O)Nc1ccc(SC(F)(F)F)cc1 (centres undefined) | inactive: 0.494% |
| CP(=O)(Nc1ccccn1)Oc1ccc(Cl)cc1 (centres undefined) | inactive: 3.16% |
| CCOP(C)(=S)SCC(=O)NC(C)C(=O)O (centres undefined) | inactive: -2.23% |
| O=[N+]([O-])c1cc([N+](=O)[O-])c(O)c([N+](=O)[O-])c1.c1ccc(Oc2ccncc2)cc1 | inactive: -4.14% |
| CCOC(=O)c1ccc(NP(C)(=O)Oc2ccc(OC)cc2)cc1 (centres undefined) | inactive: 1.17% |
| CCN(CC)CCCOC(=O)C(O)(c1ccccc1)c1ccccc1 | inactive: -1.17% |
| CC(C)(C)c1ccc(OP(C)(=O)Nc2ccc(SC(F)(F)F)cc2)cc1 (centres undefined) | inactive: 1.17% |
| O=[N+]([O-])c1ccc2c(c1)C=Nc1ccccc1O2 | inactive: 1.24% |
| O=[N+]([O-])c1cc([N+](=O)[O-])c(Nc2cccnc2)c([N+](=O)[O-])c1 | inactive: 0.109% |
| COc1ccc(OP(C)(=O)Nc2cccc(F)c2)cc1 (centres undefined) | inactive: 0.896% |
| COc1ccccc1OP(C)(=O)Nc1cc(Cl)ccc1C (centres undefined) | inactive: -1.52% |
| Cc1cc(C)cc(OP(C)(N)=O)c1 (centres undefined) | inactive: 3.53% |
| CCOC(=O)c1ccc(NP(C)(=O)Oc2ccccc2)cc1 (centres undefined) | inactive: 1.41% |
| Cc1ccc(NP(C)(=O)Oc2ccccc2)c(C)c1 (centres undefined) | inactive: 5.67% |

| SMILES | inhibition |
| --- | --- |
| COc1ccccc1OP(C)(=O)Nc1ccc(C)cc1 (centres undefined) | inactive: 0.123% |
| O=C(O)c1cccc(Nc2c([N+](=O)[O-])cc([N+](=O)[O-])cc2[N+](=O)[O-])c1 | inactive: 2.25% |
| CC1=NCCc2c1[nH]c1ccccc21.O=[N+]([O-])c1cc([N+](=O)[O-])c(O)c([N+](=O)[O-])c1 | inactive: 7.68% |
| Cc1cc(C)cc(OP(C)(=O)Nc2ccc(C)cc2C)c1 (centres undefined) | inactive: 0.515% |
| CCOC(=O)c1ccc(NP(C)(=O)Oc2cc(C)cc(C)c2)cc1 (centres undefined) | inactive: 6.08% |
| COc1ccccc1OP(C)(=O)Nc1cccc(Br)c1 (centres undefined) | inactive: 0.0855% |
| Cc1cc(C)cc(OP(C)(=O)Nc2ccccn2)c1 (centres undefined) | inactive: -1.9% |
| CP(=O)(Nc1cccc(Br)c1)Oc1ccccc1 (centres undefined) | inactive: 6.12% |
| Cc1ccc(C)c(NP(C)(=O)Oc2ccccc2)c1 (centres undefined) | inactive: -1.87% |
| O=[N+]([O-])c1cc([N+](=O)[O-])c(-n2nnc3ccccc32)c([N+](=O)[O-])c1 | inactive: 1.19% |
| Cc1nc2ccc3ccccc3c2s1.O=[N+]([O-])c1cc([N+](=O)[O-])c(O)c([N+](=O)[O-])c1 | inactive: 0.616% |
| O=[N+]([O-])c1cc([N+](=O)[O-])c(-c2cnn(-c3ccccc3)c2)c([N+](=O)[O-])c1 | inactive: -2.48% |
| CCOC(=O)C(CC)C1=NC(C)(C)Cc2ccccc21.O=[N+]([O-])c1cc([N+](=O)[O-])c(O)c([N+](=O)[O-])c1 (centres undefined) | inactive: 1.21% |
| CC1=C2N=C(C=C3N=C(C(C)=C4[N-][C@@](C)([C@@H]5N=C1[C@](C)(CCC(=O)NC[C@@H](C)OP(=O)([O-])O[C@H]1[C@@H](O)[C@@H](n6cnc7cc(C)c(C)cc76)O[C@@H]1CO)[C@H]5CC(N)=O)[C@@](C)(CC(N)=O)[C@@H]4CCC(N)=O)[C@@](C)(CC(N)=O)[C@@H]3CCC(N)=O)C(C)(C)[C@@H]2CCC(N)=O.[C-]#N.[Co+3] | inactive: 1.89% |
| O=[N+]([O-])c1cc([N+](=O)[O-])c(Nc2nnnn2CCO)c([N+](=O)[O-])c1 | inactive: -0.193% |
| CCCOc1ccc(NP(C)(=O)Oc2ccc(Cl)cc2)cc1 (centres undefined) | inactive: 1.68% |
| CP(=O)(Nc1ccc(SC(F)(F)F)cc1)Oc1ccccc1 (centres undefined) | inactive: 0.249% |
| CN1CCCCC1COC(=O)C1(O)c2ccccc2CCc2ccccc21 (centres undefined) | inactive: -3.95% |
| COc1ccccc1OP(C)(=O)Nc1c(C)cccc1C (centres undefined) | inactive: -1.39% |
